Measured values from paper PMC11937253, “Identification of neutralizing nanobodies protecting against poxvirus infection” (Cell Discovery, 2025).

B1: recombinant MPXV M1R protein (ectodomain, His-tagged) (domain or fragment)
chain: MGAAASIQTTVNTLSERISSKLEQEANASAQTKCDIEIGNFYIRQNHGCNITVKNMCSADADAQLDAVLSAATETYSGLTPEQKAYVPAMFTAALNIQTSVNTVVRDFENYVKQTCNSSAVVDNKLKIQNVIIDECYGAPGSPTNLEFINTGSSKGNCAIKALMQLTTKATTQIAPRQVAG
B2: nanobody M1R-01 (monovalent) (VHH)
VHH: QVQLVESGGGLVQAGGSLRLSCAASGFIFHNFDMGWYRQAPGKEREFVAAISDNGRSTYYADSVKGRFTISRDNAKNTVYLQMNSLKPEDTAVYYCAVAWLSIPDLAEWYDYWGQGTQVTVSS

Experiments:
[1] = biological target: mFc-M1R-01 (M1R-01 fused with mouse IgG Fc), purified; assay: SPR; BiaCore T200; […]; 1:1 binding model; details: both partners purified
[2] = biological target: B1; assay: cell-based or functional assay

Binder	Kd [1]	neutralizing IC50 against IMV of MVA and VACV-WR (plaque reduction) [2]
B1	1.79 nM	
B2		~20 mg/L
